Compound potency records, mixed from different reports. Data source: NIAID ChemDB in PubChem.

All rows: whole-cell or culture tests; organism: HIV-1; cells: CEM + CEM-SS; read-out: EC50

Lines come from different laboratories, so protocols vary.

structure | strain or isolate | changes | method | value
CS(=O)(=O)O.Cc1c(O)cccc1C(=O)N[C@@H](CSc1ccccc1)[C@H](O)CN1C[C@H]2CCS[C@H]2C[C@H]1C(=O)NC(C)(C)C | HXB2 | - | cytopathic effect / XTT | 0.0051 µM
COc1ccc(/C=C2/C(=O)C(c3ccccc3)N(c3ccccc3)C2=O)cc1OC | - | - | cytopathic effect / XTT | <200 µM
Fc1cccc(F)c1C1SCc2nc3cc4ccccc4cc3n21 | RF | - | - | >0.63 µM
Cc1ccnc(SC(F)(F)c2nc3ccccc3o2)n1 | RF | - | cytopathic effect / XTT | 0.0646 µM
Nc1ccn([C@@H]2C[C@H](F)[C@H](CO)O2)c(=O)n1 | LAL | - | - | 82 µM
CC(C)CCC[C@@H](C)[C@H]1CC[C@H]2[C@@H]3C=C[C@H]4C[C@@H](OP(=O)(O)OCCC=C(c5cc(Cl)c(O)c(C(=O)O)c5)c5cc(Cl)c(O)c(C(=O)O)c5)CC[C@]4(C)[C@H]3CC[C@]12C | RF | - | cytopathic effect | >39 µM
O=C(OC(c1cccnc1)C(F)(F)c1nc2ccccc2o1)c1cccc(C(F)(F)F)c1 | LAI | - | RT activity | >100 µM
Nc1nc2c(ncn2[C@H]2C[C@]23C[C@H]3CO)c(=O)[nH]1 | RF | - | - | >100 µM
COC(c1ccc(-c2ccccc2)cc1)C(F)(F)c1nc2ccccc2o1 | LAI | - | RT activity | >100 µM
COc1cc(C)cc2c(-c3ccc(O)cc3O)cc(-c3cc(-c4ccc(O)cc4O)c4cc(C)cc(OC)c4c3O)c(O)c12 | RF | - | cytopathic effect | >100 µM
O=C(CCN1C(=O)/C(=C/c2cccs2)SC1=S)Nc1ccc(O)c(C(=O)O)c1 | - | - | cytopathic effect / XTT | 21 µM
Nc1ncnc2c1ncn2[C@H]1C[C@@]12C[C@H]2CO | RF | - | - | >100 µM
Cc1cc(C)cc(Sc2c([N+](=O)[O-])c(=O)[nH]c3ccccc23)c1 | N119(RT-Y181C) | RT-Y181C | cytopathic effect / MTT | 6.7 µM
CC(C)CCC[C@@H](C)[C@H]1CC[C@H]2[C@@H]3CC[C@H]4C[C@@H](CCC=C(c5cc(Cl)c(O)c(C(=O)O)c5)c5cc(Cl)c(O)c(C(=O)O)c5)CC[C@]4(C)[C@H]3CC[C@]12C | RF | - | syncytia | 5.1 µM
CSC1=NS(=O)(=O)N([C@@H]2O[C@H](COC(C)=O)[C@@H](OC(C)=O)[C@H]2OC(C)=O)C(=O)N1 | IIIB | - | syncytia | >40 µg/mL
Cn1c(=O)c2c(ncn2CCOc2ccc3cc2Cc2cc(ccc2OCCn2cnc4c2c(=O)n(C)c(=O)n4C)N=Cc2cccc(c2)C=Nc2ccc(OCCn4cnc5c4c(=O)n(C)c(=O)n5C)c(c2)Cc2cc(ccc2OCCn2cnc4c2c(=O)n(C)c(=O)n4C)N=Cc2cccc(c2)C=N3)n(C)c1=O | RF | - | cytopathic effect / XTT | >25 µg/mL
CC(=O)OC(c1cccnc1)C(F)(F)c1nc2ccccc2o1 | LAI | - | RT activity | >100 µM
COc1cccc2c(-c3ccc(O)cc3O)cc(-c3cc(-c4ccc(O)cc4O)c4cccc(OC)c4c3O)c(O)c12 | RF | - | cytopathic effect | >100 µM
Cc1cc(C)cc(Sc2c(N)c(=O)[nH]c3ccccc23)c1 | N119(RT-Y181C) | RT-Y181C | cytopathic effect / MTT | 4.3 µM
Nc1nc2c(ncn2[C@@H]2C[C@@H](F)[C@H](CO)O2)c(=O)[nH]1 | - | - | cytopathic effect / MTT | >100 µM
Nc1ncnc2c1ncn2[C@H]1C[C@@]12C[C@@H]2CO | - | - | - | >100 µM
CC(C)=CCOc1cc(NC(=S)c2ccoc2C)ccc1Cl | NL4-3 | RT-K103N | p24 | 0.1 µM
Cc1cn(CCCO[C@H]2C=C[C@@H](CO)O2)c(=O)[nH]c1=O | LAI | - | RT activity | 37 µg/mL
C[C@H](CCCC(c1cc(Cl)c(O)c(C(=O)O)c1)c1cc(Cl)c(O)c(C(=O)O)c1)[C@H]1CC[C@H]2[C@@H]3CC[C@@H]4CC(F)(F)CC[C@]4(C)[C@H]3CC[C@]12C | RF | - | cytopathic effect | 24 µM
COc1cc(OC)c2c(O)c(-c3cc(-c4cccs4)c4cc(OC)cc(OC)c4c3O)cc(-c3cccs3)c2c1 | RF | - | cytopathic effect | >100 µM
CC(C)CCC[C@@H](C)[C@H]1CC[C@H]2[C@]3(C)CC[C@H]4C[C@@H](CC=C(c5cc(Cl)c(O)c(C(=O)O)c5)c5cc(Cl)c(O)c(C(=O)O)c5)CC[C@]4(C)[C@H]3CC[C@@]21C | RF | - | cytopathic effect | 25 µM
Clc1cccc(Cl)c1C1SCc2nc3cc4ccccc4cc3n21 | RF | - | - | >200 µM
CSC1=NS(=O)(=O)N([C@@H]2O[C@H](COC(C)=O)[C@@H](OC(C)=O)[C@H](OC(C)=O)[C@H]2OC(C)=O)C(=O)N1 | IIIB | - | syncytia | >200 µg/mL
COc1c(Cl)cc(C(=CCCCCN[C@H]2CC[C@]3(C)C4CC[C@@]5(C)C(CC[C@@H]5C(C)CCCC(C)C)C4CC[C@H]3C2)c2cc(Cl)c(OC)c(C(=O)O)c2)cc1C(=O)O | RF | - | cytopathic effect / MTT | >316 µM
CC(C)CCC[C@@H](C)[C@H]1CC[C@H]2[C@@H]3CC[C@H]4C[C@@H](CCC=C(c5cc(Cl)c(O)c(C(=O)O)c5)c5cc(Cl)c(O)c(C(=O)O)c5)CC[C@]4(C)[C@H]3CC[C@]12C | RF | - | cytopathic effect / XTT | 5.1 µM
CC(C)CCC[C@@H](C)[C@H]1CC[C@H]2[C@]3(C)CC[C@H]4C[C@@H](CCCC=C(c5cc(Cl)c(O)c(C(=O)O)c5)c5cc(Cl)c(O)c(C(=O)O)c5)CC[C@]4(C)[C@H]3CC[C@@]21C | RF | - | cytopathic effect | 3.4 µM
Cc1cn(CCCCCCCCCCCCOc2ccc([N+](=O)[O-])cc2Cc2cc([N+](=O)[O-])ccc2OCCCCCCCCCCCCn2cc(C)c(=O)[nH]c2=O)c(=O)[nH]c1=O | RF | - | cytopathic effect / XTT | >25 µg/mL
COc1cc(C)cc2c(-c3cccs3)cc(-c3cc(-c4cccs4)c4cc(C)cc(OC)c4c3O)c(O)c12 | RF | - | cytopathic effect | >100 µM
Cc1cc(C)nc(SC(F)(F)c2nc3ccccc3o2)n1 | RF | - | cytopathic effect / XTT | 2.16 µM
Cn1cc(NC(=O)Nc2cc(C(=O)Nc3cc(C(=O)Nc4ccc(S(=O)(=O)O)c5cc(S(=O)(=O)O)ccc45)n(C)c3)n(C)c2)cc1C(=O)Nc1cc(C(=O)Nc2ccc(S(=O)(=O)O)c3cc(S(=O)(=O)O)ccc23)n(C)c1 | RF | - | cytopathic effect / XTT | 1.5 µM
Nc1ncnc2c1ncn2[C@H]1C[C@]12C[C@@H]2CO | - | - | - | >100 µM
FC(c1ccc(C(F)(F)F)cc1)C(F)(F)c1nc(-c2ccccc2)no1 | LAI | - | RT activity | >100 µM
COc1cc(OC)c2c(O)c(-c3cc(-c4ccccc4)c4cc(OC)cc(OC)c4c3O)cc(-c3ccccc3)c2c1 | RF | - | cytopathic effect | >100 µM
O=C(c1ccc(-c2ccccc2)cc1)C(F)(F)c1nc2ccccc2o1 | LAI | - | RT activity | >100 µM
O=C(CCN1C(=O)/C(=C/c2ccc3c(c2)OCO3)SC1=S)Nc1ccc(C(=O)O)c(O)c1 | - | - | cytopathic effect / XTT | >200 µM
COc1cc(C)cc2c(-c3cccc(N)c3)cc(-c3cc(-c4cccc(N)c4)c4cc(C)cc(OC)c4c3O)c(O)c12 | RF | - | cytopathic effect | >100 µM
Cc1ccc([C@H]2c3ccccc3S(=O)(=O)N2C)cc1 | RF | - | cytopathic effect / XTT | 1.53 µM
C[C@H](CCC=C(c1cc(Cl)c(O)c(C(=O)O)c1)c1cc(Cl)c(O)c(C(=O)O)c1)[C@H]1CCC2C3C(C[C@H](O)[C@@]21C)[C@@]1(C)CC[C@@H](O)C[C@H]1C[C@H]3O | RF | - | syncytia | >150 µM
FC(c1ccccc1)C(F)(F)c1nc2ccccc2o1 | LAI | - | RT activity | >100 µM
CCC(C)C(NC(=O)c1ccccc1SSc1ccccc1C(=O)NC(C(=O)O)C(C)CC)C(=O)O | RF | - | cytopathic effect / XTT | 1.9 µM
Nc1ncnc2c1ncn2[C@H]1C[C@]12C[C@H]2CO | - | - | - | >100 µM
FC(c1ccc(-c2ccccc2)cc1)C(F)(F)c1nc2ccccc2o1 | LAI | - | RT activity | >100 µM
Cc1cccc(Sc2c(C)c[nH]c(=O)c2N)c1 | N119(RT-Y181C) | RT-Y181C | cytopathic effect / MTT | >100 µM

The last 5 rows once more:

structure,strain or isolate,changes,method,value
FC(c1ccccc1)C(F)(F)c1nc2ccccc2o1,LAI,-,RT activity,>100 µM
CCC(C)C(NC(=O)c1ccccc1SSc1ccccc1C(=O)NC(C(=O)O)C(C)CC)C(=O)O,RF,-,cytopathic effect / XTT,1.9 µM
Nc1ncnc2c1ncn2[C@H]1C[C@]12C[C@H]2CO,-,-,-,>100 µM
FC(c1ccc(-c2ccccc2)cc1)C(F)(F)c1nc2ccccc2o1,LAI,-,RT activity,>100 µM
Cc1cccc(Sc2c(C)c[nH]c(=O)c2N)c1,N119(RT-Y181C),RT-Y181C,cytopathic effect / MTT,>100 µM

Blank or dashed fields: not listed here. ECn: concentration that inhibits the pathogen or its effect by n%.